Source: PubChem BioAssay AID504761 (Drosophila RNAi Screening Center, 2011)
Purpose: 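Fly genes whose silencing reduces dengue virus type 2 infection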 (primary screen). Cells: D.Mel-2 cells from Drosophila. Reagent: long dsRNA against Drosophila genes. Challenge: infection with dengue virus type 2; dose and infection time not stated. Detection: 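Per well on two replicate plates, imaging gave the percent of cells positive for viral envelope protein, ranked by infection, and a nuclear count of cells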. Reading the numbers: infection score: higher = more virus-infected cells; cell count: higher = more cells in the well. Rule for the call: 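Low infection ranks in the two replicates (chance level up to 0.065) followed by a retest with a 1.5-fold or larger significant decrease, p below 0.05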. Meaning of the calls: active = confirmed: knock-down lowers infection; inactive = not picked or not confirmed.
The deposit covers about 22,000 reagents; below is an unselected part of those that have a named target and a result. In the full data, 116 (0.52%) got an active call. 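Calls depend on retest data that are not deposited; infection was ranked per plate without normalising between plates; the unit of the infection score is not given.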 The raw values are shown without normalisation. A number with no mark means an inactive call. Reagents against one gene are numbered here. A plus sign joins genes that one reagent is predicted to hit. Further read-outs or replicates are left out here. Not given: the amount of reagent, the time to read-out.

Mid1 #1
- infection score, replicate 1: 3.82
- cell count, replicate 1: 6755

Mid1 #2
- infection score, replicate 1: 17.9
- cell count, replicate 1: 5101

Mid1 #3
- infection score, replicate 1: 0.71
- cell count, replicate 1: 5739

Mid1 #4
- infection score, replicate 1: 1.26
- cell count, replicate 1: 5853

Mid1 #5
- infection score, replicate 1: 4.87
- cell count, replicate 1: 6667

Mid1 #6
- infection score, replicate 1: 21
- cell count, replicate 1: 3579

CG11929
- infection score, replicate 1: 5.46
- cell count, replicate 1: 6780

Obp99b #1
- cell count, replicate 1: 306

Obp99b #2
- infection score, replicate 1: 5.03
- cell count, replicate 1: 1432

Hira
- infection score, replicate 1: 21.5
- cell count, replicate 1: 4795

EMC2B
- infection score, replicate 1: 3.64
- cell count, replicate 1: 6078

CG34277 + CG31542 #1
- infection score, replicate 1: 1.79
- cell count, replicate 1: 6377

CG34277 + CG31542 #2
- infection score, replicate 1: 3.47
- cell count, replicate 1: 5528

Or67b
- infection score, replicate 1: 1.36
- cell count, replicate 1: 6248
